Measured values taken from US10414725B2, “Pyrrolomycins and methods of using the same” (priority 2015, dated 2019).

Columns and labels:
[1] = test system: Staphyloccocus aureus USA300; assay: Minimum inhibitory concentration, broth microdilution, Staphylococcus aureus; format: cell-based; conditions: for SI SA (IC50 Hela cytotoxicity / MIC): ratio to MIC against SA
[2] = test system: Bacillus anthracis V770-NP1-R; format: cell-based

Structure (SMILES) | SI SA (IC50 Hela cytotoxicity / MIC) [1] | fold less potent/active than 3 ([1]; SA MIC) [fold] | SI BA (IC50 Hela cytotoxicity / MIC) [2] | also measured
O=C(c1cc(F)cc(F)c1O)c1[nH]c(Br)c(Br)c1Br [Compound 3] | > 275 | – | – | –
COc1c(F)cc(F)cc1C(=O)c1[nH]c(Br)c(Br)c1Br [Compound 10] | – | 18 | – | –
O=C(c1cc(Br)c(F)[nH]1)c1cc(Cl)cc(Cl)c1O [Compound 4] | > 484 | – | > 751 | –
O=C(c1cc(Br)c[nH]1)c1cc(Cl)cc(Cl)c1O [Compound 19] | – | – | – | fold less active than congeners 4 and 17 ([1]; SA MIC): at least 54 fold
O=C(c1cc(Cl)cc(Cl)c1O)c1[nH]c(F)c(Br)c1Br [Compound 18] | >229 | – | >346 | –
COc1c(F)cc(F)cc1C(=O)c1c(Br)c(Br)c(Br)n1C [Compound 11] | – | 24 | – | –
O=C(c1cc(Br)c(Br)[nH]1)c1cc(Cl)cc(Cl)c1O [Compound 17] | >567 | – | >220 | –
Cn1c(Br)c(Br)c(Br)c1C(=O)c1cc(F)cc(F)c1O [Compound 12] | – | 24 | – | –
